A mixed list of measured activities; the numbers were collected in NIAID ChemDB.

All rows: tests on isolated targets; species: Hepatitis C virus; protein: NS3/NS4A protease; endpoint: IC50

An empty or dashed field is not shown.

structure | strain or isolate | value
O=C(Nc1ccc(Oc2ccc(Cl)c3ccccc23)c(Cl)c1)c1cc(Cl)ccc1CS(=O)(=O)c1ccc(Cl)cc1 | - | 6.5 µM
C#CC[C@@H](C=O)C(=O)[C@H](CCC(=O)O)NC(=O)[C@@H](CCC(=O)O)NC(=O)[C@H](Cc1ccccc1)NC(=O)[C@H](CCC(=O)O)NC(=O)[C@H](CC(=O)O)NC(=O)CCC(=O)O | - | 41 µM
C=C1C[C@]1(NC(=O)[C@@H]1C[C@@H](Oc2cc(-c3ccccc3)nc3cc(OC)ccc23)CN1C(=O)[C@@H](NC(=O)OC(C)(C)C)C(C)(C)C)C(=O)NS(=O)(=O)c1ccccc1F | BMS | <0.05 µM
C=CC1C[C@]1(NC(=O)[C@@H]1C[C@@H](Oc2cc(-c3ccccc3)nc3cc(OC)ccc23)CN1C(=O)[C@@H](NC(=O)OC(C)(C)C)C(C)(C)C)C(=O)NS(=O)(=O)c1cc(Cl)c(Br)s1 | BMS | <0.1 µM
C#CC[C@@H](C=O)NC(=O)[C@H](CC(C)C)NC(=O)[C@@H](NC(=O)[C@H](Cc1ccccc1C)NC(=O)[C@H](CCC(=O)O)NC(=O)[C@H](CC(=O)O)NC(=O)CCC(=O)O)C(C)(C)C | - | 0.18 µM
C=CC1C[C@@]1(NC(=O)[C@@H]1C[C@@H](Oc2cc(-c3ccccc3)nc3cc(OC)ccc23)CN1C(=O)[C@@H](NC(=O)CC(C)(C)C)C(C)(C)C)C(=O)NS(=O)(=O)C1(Cc2ccccc2)CC1 | BMS | 0.05–0.5 µM
C=CC1C[C@]1(NC(=O)[C@@H]1C[C@@H](Oc2cc(-c3ccccc3)nc3cc(OC)ccc23)CN1C(=O)[C@@H](NC(=O)OC(C)(C)C)C(C)(C)C)C(=O)NS(=O)(=O)c1cc(Br)c(Cl)s1 | BMS | <0.1 µM
C=CC1CC1(NC(=O)C1C[C@@H](Oc2cc(-c3ccccc3)nc3cc(OC)ccc23)CN1C(=O)C(NC(=O)OC(C)(C)C)C(C)(C)C)C(=O)OCC | BMS | 0.017 µM
C=C[C@@H]1C[C@]1(NC(=O)[C@@H]1C[C@@H](Oc2cc(-c3ccccc3)nc3cc(OC)ccc23)CN1C(=O)[C@@H](NC(=O)OC(C)(C)C)C(C)(C)C)C(=O)NS(=O)(=O)c1ccc(OC)cc1 | BMS | <0.05 µM
C=C[C@@H]1C[C@]1(NC(=O)C1C[C@@H](Oc2cc(-c3csc(NC4CCCC4)n3)nc3cc(OC)ccc23)CN1C(=O)[C@@H](NC(=O)OC1CCCC1)C1CCCCC1)C(=O)O | - | <0.1 µM
C=CC1C[C@@]1(NC(=O)[C@@H]1C[C@@H](Oc2cc(-c3ccccc3)nc3cc(OC)ccc23)CN1C(=O)[C@@H](NC(=O)O[C@H]1CC(C)CC[C@@H]1C(C)C)C(C)(C)C)C(=O)NS(=O)(=O)C1(Cc2ccccc2)CC1 | BMS | 0.5–5 µM
C=C[C@@H]1C[C@]1(NC(=O)[C@@H]1C[C@@H](Oc2cc(-c3ccccc3)nc3cc(OC)ccc23)CN1C(=O)[C@@H](NC(=O)OCCCC)C(C)(C)C)C(=O)NS(=O)(=O)C1CC1 | BMS | <0.05 µM
CCCCCCCCCCCCCNC(=O)c1c(O)cc(O)c([N+](=O)[O-])c1O | - | 5.8 µM
C=CC1C[C@]1(NC(=O)[C@@H]1C[C@@H](Oc2cc(-c3ccccc3)nc3cc(OC)ccc23)CN1C(=O)[C@@H](NC(=O)OC(C)(C)C)C(C)(C)C)C(=O)NS(=O)(=O)c1c(C)noc1C | BMS | <0.1 µM
C=CC1CC1(NC(=O)[C@@H]1C[C@@H](OC(=O)N2CCc3ccccc3C2)CN1C(=O)[C@@H](NCC1CC1)C(C)(C)C)C(=O)NS(=O)(=O)C1CC1 | BMS/H77C/J416S | <0.1 µM
CC[C@@H](C=O)C(=O)[C@H](CCC(=O)O)NC(=O)[C@H](CCC(=O)O)NC(=O)[C@H](CCSC)NC(=O)[C@H](CCC(=O)O)NC(=O)[C@H](CC(=O)O)NC(=O)CCC(=O)O | - | 97 µM
C=CC1C[C@]1(NC(=O)[C@@H]1C[C@@H](Oc2cc(-c3ccccc3)nc3cc(OC)ccc23)CN1C(=O)[C@@H](NC(=O)OC(C)(C)C)C(C)(C)C)C(=O)NS(=O)(=O)c1cc(Cl)c(Cl)s1 | BMS | <0.1 µM
C=CC1CC1(NC(=O)[C@@H]1C[C@@H](OC(=O)Nc2ccc(Cl)cc2-c2cc(C)[nH]n2)CN1C(=O)[C@@H](NC(=O)OC(C)(C)C)C(C)(C)C)C(=O)NS(=O)(=O)C1CC1 | BMS/H77C/J416S | 0.1–1 µM
C=C[C@@H]1C[C@]1(NC(=O)C1C[C@@H](Oc2cc(-c3csc(NC4CCCC4)n3)nc3cc(OC)ccc23)CN1C(=O)[C@@H](NC(=O)OC1CCCC1)C1CCCC1)C(=O)O | - | <0.1 µM
C=CCC1(S(=O)(=O)NC(=O)[C@]2(NC(=O)[C@@H]3C[C@@H](Oc4ccnc5cc(Cl)ccc45)CN3C(=O)[C@@H](NC(=O)OC3CCCC3)C(C)(C)C)C[C@@H]2C=C)CC1 | BMS | 0.05–0.5 µM
C=C[C@@H]1C[C@]1(NC(=O)[C@@H]1C[C@@H](Oc2cc(-c3ccccc3)nc3cc(OC)ccc23)CN1C(=O)[C@@H](NC(=O)CCl)C(C)(C)C)C(=O)NS(=O)(=O)C1CC1 | BMS | <0.05 µM
C=CCC1(S(=O)(=O)NC(=O)C2(NC(=O)[C@@H]3C[C@@H](Oc4cc(-c5ccccc5)nc5cc(OC)ccc45)CN3C(=O)[C@@H](NC(=O)OC(C)(C)C)C(C)(C)C)CC2)CC1 | BMS | <0.05 µM
C=C[C@@H]1C[C@]1(NC(=O)[C@@H]1C[C@@H](Oc2cc(-c3ccccc3)nc3cc(OC)ccc23)CN1C(=O)[C@@H](NC(=O)OC(C)(C)C)C(C)C)C(=O)NS(=O)(=O)C(F)(F)F | BMS | <0.5 µM
C=CC1CC1(NC(=O)[C@@H]1C[C@@H](OC(=O)Nc2ccccc2-n2cccn2)CN1C(=O)[C@@H](NC(=O)OC(C)(C)C)C(C)(C)C)C(=O)NS(=O)(=O)C1CC1 | BMS/H77C/J416S | <0.1 µM
C=C[C@H]1C[C@@]1(NC(=O)[C@@H]1C[C@@H](Oc2cc(-c3ccccc3)nc3cc(OC)ccc23)CN1C(=O)[C@@H](NC(=O)OC(C)(C)C)C(C)(C)C)C(=O)NS(=O)(=O)C1(Cc2ccccn2)CC1 | BMS | <0.05 µM
C=CC1CC1(NC(=O)[C@@H]1C[C@@H](OC(=O)Nc2cc(C)ccc2F)CN1C(=O)[C@@H](NC(=O)OC(C)(C)C)C(C)(C)C)C(=O)O | BMS/H77C/J416S | >10 µM
CSCC[C@H](NC(=O)[C@H](CCC(=O)O)NC(=O)[C@H](CC(=O)O)NC(=O)CCC(=O)O)C(=O)N[C@H](C(=O)N[C@@H](CCC(=O)O)C(=O)N[C@H](C=O)CC(F)(F)F)C(C)C | - | 3 µM
C=CC1C[C@@]1(NC(=O)[C@@H]1C[C@@H](Oc2cc(-c3ccccc3)nc3cc(OC)ccc23)CN1C(=O)[C@@H](NC(=O)N(C)C(C)(C)C)C(C)(C)C)C(=O)NS(=O)(=O)C1(CC2CC2)CC1 | BMS | <0.05 µM
C=C[C@@H]1C[C@]1(NC(=O)C1C[C@@H](Oc2cc(-c3csc(NC4CCCC4)n3)nc3cc(OC)ccc23)CN1C(=O)[C@@H](NC(=O)OC1CCCC1)C(C)(C)C)C(=O)O | - | <0.1 µM
C=C[C@@H]1C[C@]1(NC(=O)[C@@H]1C[C@@H](Oc2cc(-c3ccccc3)nc3cc(OC)ccc23)CN1C(=O)[C@@H](NC(=O)OC(C)(C)C)C(C)(C)C)C(=O)NS(=O)(=O)C1CCC1 | BMS | <0.05 µM
C=CC1C[C@]1(NC(=O)[C@@H]1C[C@@H](Oc2cc(-c3ccccc3)nc3cc(OC)ccc23)CN1C(=O)[C@@H](NC(=O)OC(C)(C)C)C(C)(C)C)C(=O)NS(=O)(=O)c1ccc(C)cn1 | BMS | <0.1 µM
C=CC1CC1(NC(=O)[C@@H]1C[C@@H](OC(=O)Nc2cc(C(F)(F)F)ccc2-n2cccn2)CN1C(=O)[C@@H](NC(=O)OC(C)(C)C)C(C)(C)C)C(=O)NS(=O)(=O)C1CC1 | BMS/H77C/J416S | <0.1 µM
COc1ccc2c(O[C@@H]3C[C@@H](C(=O)NC4(C(=O)NS(=O)(=O)C5(C6=CCCCC6)CC5)CC4)N(C(=O)[C@@H](NC(=O)OC(C)(C)C)C(C)(C)C)C3)cc(-c3ccccc3)nc2c1 | BMS | 0.05–0.5 µM
C=C[C@@H]1C[C@]1(NC(=O)[C@@H]1C[C@@H](Oc2cc(-c3ccccc3)nc3cc(OC)ccc23)CN1C(=O)[C@H](CC(C)C)NC(=O)OC(C)(C)C)C(=O)NS(=O)(=O)C1CC1 | BMS | <0.05 µM

A second listing of 3 rows from above:

{"structure": "O=C(Nc1ccc(Oc2ccc(Cl)c3ccccc23)c(Cl)c1)c1cc(Cl)ccc1CS(=O)(=O)c1ccc(Cl)cc1", "value": "6.5 µM"}
{"structure": "C=CC1C[C@]1(NC(=O)[C@@H]1C[C@@H](Oc2cc(-c3ccccc3)nc3cc(OC)ccc23)CN1C(=O)[C@@H](NC(=O)OC(C)(C)C)C(C)(C)C)C(=O)NS(=O)(=O)c1ccc(C)cn1", "strain or isolate": "BMS", "value": "<0.1 µM"}
{"structure": "C=CC1C[C@]1(NC(=O)[C@@H]1C[C@@H](Oc2cc(-c3ccccc3)nc3cc(OC)ccc23)CN1C(=O)[C@@H](NC(=O)OC(C)(C)C)C(C)(C)C)C(=O)NS(=O)(=O)c1cc(Br)c(Cl)s1", "strain or isolate": "BMS", "value": "<0.1 µM"}

Lines come from different laboratories, so protocols vary. ICn is the concentration giving n% inhibition. a–b is a range or a potency band.